PSTVd loop 1 mutant pool in Nicotiana benthamiana

Reference: Wu et al. 2024, doi:10.1371/journal.ppat.1012142.

The pool varies loop 1 of the PSTVd intermediate strain in the pattern CNNNNG; wild type is CCUCGG (5' to 3', with the closing base pair).

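Three N. benthamiana plants were inoculated with the whole mutant pool. Samples came from the inoculated region at 5 days, the leaf margin at 10 and upper systemic leaves at 12.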

Values are reads per thousand in the sample; higher means more abundant, 0 means not found.
Each site shows the three plants.
"Pool" is the share in the plasmid pool used as inoculum, on the same scale.
The inoculated region was read from the minus strand, the other sites from the plus strand.
Wild type was 20.1 per thousand in the pool and the most common sequence in every sample (inoculated region 197, 219, 222; leaf margin 828, 823, 779; systemic leaves 914, 907, 857).
The authors trace changes outside the varied positions to PCR and sequencing errors or to mutation in the plant; presence does not show that a variant is infectious alone.
With 32,791-60,834 reads a sample, very low values are single reads.

sequence	pool	inoculated region	leaf margin	systemic leaves
CGAGAG	3.31	2.80 2.85 2.39	0 0 0	0 0 0
CGAGCG	3.81	2.38 3.07 2.84	0.0199 0.0211 0	0 0 0.0164
CGAGGG	3.25	2.99 2.72 2.77	0.0199 0.0211 0.0305	0 0 0
CGAGUG	3.52	2.92 3.13 2.64	0.0199 0 0.0305	0 0 0.0164
CGAGUU	0.0131	0 0 0	0 0 0	0 0 0
CGAUAG	3.81	2.95 2.66 2.70	0.0199 0.0211 0.0305	0 0 0
CGAUCG	5.19	2.60 2.76 2.73	0.0199 0.0211 0	0 0 0.0164
CGAUGG	3.64	3.16 2.57 2.61	0.0199 0 0	0 0 0
CGAUUG	3.92	2.90 3.28 2.68	0 0 0	0 0 0.0329
CGCAAG	4.43	3.04 2.62 2.22	0 0 0.0610	0 0 0.0164
CGCACG	3.56	2.95 2.68 2.57	0 0.0211 0	0 0.0180 0
CGCAGG	3.49	2.93 2.76 2.66	0 0.0423 0.0305	0 0 0
CGCAUG	4.51	2.73 2.49 3.02	0 0.0211 0	0 0.0180 0.0329
CGCCAG	3.46	2.75 2.64 2.88	0.0199 0 0	0 0 0
CGCCCG	3.47	2.79 3.04 2.88	0 0.0211 0	0 0 0
CGCCGG	3.47	2.86 2.98 2.66	0 0 0	0 0 0
CGCCUG	3.31	3.30 2.44 2.98	0 0 0	0 0 0
CGCGAG	4.34	2.99 2.87 2.54	0.0199 0.0211 0	0 0 0.0164
CGCGCG	5.03	3.43 3.00 2.54	0 0.0211 0	0 0 0.0164
CGCGGG	3.86	3.17 2.92 19.2	0.0199 0.0211 0.0305	0 0 0
CGCGUG	4.41	3.01 3.30 2.32	0 0 0.0610	0 0 0.0329
CGCUAG	3.99	2.79 3.06 2.64	0.0398 0 0.0305	0 0 0
CGCUCG	3.97	3.06 3.13 2.63	0.219 0.254 0	0 0 0.0164
CGCUGG	3.94	3.17 2.79 2.63	0 0.0211 0	0 0 0
CGCUGU	0.0263	0 0 0	0 0 0	0 0 0
CGCUUG	3.73	3.21 2.96 3.11	0 0.0211 0.0305	0 0 0
CGGAAG	5.16	3.34 3.07 2.98	0.0199 0 0	0 0 0.0329
CGGACG	4.14	2.92 3.13 2.84	0.0199 0 3.69	0 0 1.40
CGGAGG	3.51	2.93 2.36 2.59	0 0.0211 0	0 0 0
CGGAUG	3.94	3.10 2.79 2.59	0 0 0	0.0203 0 0.0329
CGGCAG	3.84	2.77 2.87 2.70	0 0 0.0610	0 0 0
CGGCCG	3.99	2.77 2.57 2.55	0 0 0	0 0 0.0164
CGGCGG	3.46	3.40 2.36 2.43	0.0199 0 0	0 0 0.0164
CGGCUA	0.276	0 0.0562 0.0357	0 0 0	0 0 0
CGGCUG	5.39	3.16 3.09 2.98	0 0 0.0305	0 0.0180 0.0822
CGGGAG	4.80	2.75 2.77 2.61	0 0 0	0 0.0180 0.0164
CGGGCG	3.68	2.66 2.68 2.47	0 0 0	0 0 0.0164
CGGGGC	0.0131	0.0185 0 0	0 0 0	0.0203 0.0180 0
CGGGGG	3.71	2.71 2.74 2.13	0 0 0.0305	0.0203 0 0
CGGGUG	3.74	2.97 2.79 2.77	0 0 0.0305	0 0 0.0164
CGGUAG	5.03	3.38 2.83 2.68	0.0199 0 0	0.0406 0 0.0329
CGGUCG	4.13	2.73 2.49 2.88	15.8 7.54 8.26	0 0 1.15
CGGUGG	3.53	2.97 2.21 2.61	0.0398 0.0211 0	0 0 0
CGGUUG	4.53	2.90 2.70 2.75	0.0199 0.0211 0	0 0 0.0986
CGUAAG	4.24	3.08 3.07 2.55	0 0 0	0 0 0.0493
CGUACG	3.98	3.16 2.34 3.05	0 0 0	0 0 0
CGUAGG	3.36	2.71 2.57 2.72	0 0 0	0 0 0
CGUAUG	3.19	2.90 2.72 2.43	0 0 0	0 0 0
CGUCAG	4.34	3.17 3.17 2.84	0 0.0211 0	0 0 0.0164
CGUCCG	4.53	2.88 3.30 2.86	0.0199 0.0211 0	0 0.0180 0.0329

The opening 2 entries, copied out:

{"sequence": "CGAGAG", "pool": "3.31", "inoculated region": "2.80 2.85 2.39", "leaf margin": "0 0 0", "systemic leaves": "0 0 0"}
{"sequence": "CGAGCG", "pool": "3.81", "inoculated region": "2.38 3.07 2.84", "leaf margin": "0.0199 0.0211 0", "systemic leaves": "0 0 0.0164"}